Measurements as given in a protein production outcome set (Wang et al. 2014).

Test: label from the status in PepcDB records

## MPLNVSFTNRNYDLDYDSVQPYFYCDEEENFYQQQQQSELQPPAPSEDIWKKFELLPTPPLSPSRRSGLCSPSYVAVTPFSLRGDNDGGGGSFSTADQLEMVTELLGGDMVNQSFICDPDDETFIKNIIIQDCMWSGFSAAAKLVSEKLASYQAARKDSGSPNPARGHSVCSTSSLYLQDLSAAASECIDPSVVFPYPLNDSSSPKSCASQDSSAFSPSSDSLLSSTESSPQGSPEPLVLHEETPPTTSSDSEEEQEDEEEIDVVSVEKRQAPGKRSESGSPSAGGHSKPPHSPLVLKRCHVSTHQHNYAAPPSTRKDYPAAKRVKLDSVRVLRQISNNRKCTSPRSSDTEENVKRRTHNVLERQRRNELKRSFFALRDQIPELENNEKAPKVVILKKATAYILSVQAEEQKLISEEDLLRKRREQLKHKLEQLRNSCA
  protein production: failed
